Data on 1 molecule can be found in PubChem BioAssay AID1347084 (National Center for Advancing Translational Sciences (NCATS), 2019).

The entries are a selection whose mix differs from that of the whole data set. Results filed as inconclusive are left out. Calls of active or inactive are those of the source. The call rests on the fitted dose curve.

The assay is described as follows: qHTS for Inhibitors of the Functional Ribonucleoprotein Complex (vRNP) of Lymphocytic Choriomeningitis Arenaviruses (LCMV): LCMV Confirmatory Screen - GLuc reporter signal. The following applies: LCMV minigenome vRNP, Gaussia luciferase reporter. (In general: Quantitative high-throughput screening tests each substance at several concentrations.)

Consider `Cc1cc([N+](=O)[O-])cc([N+](=O)[O-])c1O`, for which the Potency is active: 39.5 µM.
